Protein sequences, listed by entry. Tags and fused reporters are not part of them. Lines headed by an entry give the natural chain unless they say otherwise; changes in a name come on top. Residues count along the entry.
UniProt P04757, 26-499 limits assumed: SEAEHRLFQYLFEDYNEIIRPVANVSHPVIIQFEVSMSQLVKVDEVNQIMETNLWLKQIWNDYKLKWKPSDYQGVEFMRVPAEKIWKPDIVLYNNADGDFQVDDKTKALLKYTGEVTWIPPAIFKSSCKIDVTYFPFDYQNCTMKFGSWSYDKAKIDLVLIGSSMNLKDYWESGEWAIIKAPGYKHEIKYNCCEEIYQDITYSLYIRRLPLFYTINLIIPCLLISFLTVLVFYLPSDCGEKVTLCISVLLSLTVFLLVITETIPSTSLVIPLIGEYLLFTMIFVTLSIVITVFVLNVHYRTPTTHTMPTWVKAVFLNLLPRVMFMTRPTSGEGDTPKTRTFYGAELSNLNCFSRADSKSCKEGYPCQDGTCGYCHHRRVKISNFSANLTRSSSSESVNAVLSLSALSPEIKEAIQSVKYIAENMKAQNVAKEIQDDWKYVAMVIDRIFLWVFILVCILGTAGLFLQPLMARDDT
UniProt P04757, whole entry, looked up: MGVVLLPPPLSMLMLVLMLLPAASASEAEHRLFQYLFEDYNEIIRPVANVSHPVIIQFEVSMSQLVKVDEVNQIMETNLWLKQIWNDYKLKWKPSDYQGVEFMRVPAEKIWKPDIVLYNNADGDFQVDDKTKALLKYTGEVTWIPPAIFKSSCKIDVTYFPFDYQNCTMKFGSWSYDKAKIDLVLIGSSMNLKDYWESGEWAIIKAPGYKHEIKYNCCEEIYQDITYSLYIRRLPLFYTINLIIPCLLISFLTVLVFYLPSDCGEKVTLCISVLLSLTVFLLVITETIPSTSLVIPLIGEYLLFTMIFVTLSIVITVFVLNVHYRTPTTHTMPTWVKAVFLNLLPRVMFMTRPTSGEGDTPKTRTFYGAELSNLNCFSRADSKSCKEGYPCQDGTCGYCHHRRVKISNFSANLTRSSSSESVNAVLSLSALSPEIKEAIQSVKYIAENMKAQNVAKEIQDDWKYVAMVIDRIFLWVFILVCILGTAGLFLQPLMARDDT
UniProt P12390, 25-500 limits assumed: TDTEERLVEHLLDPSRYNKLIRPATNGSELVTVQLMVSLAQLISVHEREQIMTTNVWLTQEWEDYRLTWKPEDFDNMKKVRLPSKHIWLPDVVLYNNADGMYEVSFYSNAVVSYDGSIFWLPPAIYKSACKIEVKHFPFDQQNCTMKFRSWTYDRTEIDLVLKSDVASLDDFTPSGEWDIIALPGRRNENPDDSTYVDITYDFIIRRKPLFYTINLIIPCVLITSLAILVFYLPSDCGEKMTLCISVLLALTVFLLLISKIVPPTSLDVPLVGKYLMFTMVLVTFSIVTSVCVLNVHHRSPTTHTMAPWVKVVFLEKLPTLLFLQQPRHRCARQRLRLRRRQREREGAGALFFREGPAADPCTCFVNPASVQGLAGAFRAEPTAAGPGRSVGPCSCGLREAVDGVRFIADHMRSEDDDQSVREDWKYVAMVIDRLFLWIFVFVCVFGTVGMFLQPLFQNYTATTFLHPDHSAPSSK
UniProt P12390, whole entry, looked up: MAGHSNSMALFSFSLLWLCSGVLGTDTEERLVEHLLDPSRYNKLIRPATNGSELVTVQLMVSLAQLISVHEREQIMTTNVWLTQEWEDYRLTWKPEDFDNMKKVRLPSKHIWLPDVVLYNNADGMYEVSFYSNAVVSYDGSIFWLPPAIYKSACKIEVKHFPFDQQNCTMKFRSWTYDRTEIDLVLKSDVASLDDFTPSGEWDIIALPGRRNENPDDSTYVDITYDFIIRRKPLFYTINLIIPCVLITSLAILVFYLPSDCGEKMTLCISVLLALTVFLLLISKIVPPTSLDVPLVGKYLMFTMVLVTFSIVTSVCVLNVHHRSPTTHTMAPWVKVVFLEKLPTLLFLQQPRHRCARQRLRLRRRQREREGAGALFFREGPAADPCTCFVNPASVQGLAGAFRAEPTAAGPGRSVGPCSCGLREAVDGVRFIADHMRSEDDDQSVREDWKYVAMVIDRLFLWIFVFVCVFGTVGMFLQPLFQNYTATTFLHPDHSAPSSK
UniProt P12391: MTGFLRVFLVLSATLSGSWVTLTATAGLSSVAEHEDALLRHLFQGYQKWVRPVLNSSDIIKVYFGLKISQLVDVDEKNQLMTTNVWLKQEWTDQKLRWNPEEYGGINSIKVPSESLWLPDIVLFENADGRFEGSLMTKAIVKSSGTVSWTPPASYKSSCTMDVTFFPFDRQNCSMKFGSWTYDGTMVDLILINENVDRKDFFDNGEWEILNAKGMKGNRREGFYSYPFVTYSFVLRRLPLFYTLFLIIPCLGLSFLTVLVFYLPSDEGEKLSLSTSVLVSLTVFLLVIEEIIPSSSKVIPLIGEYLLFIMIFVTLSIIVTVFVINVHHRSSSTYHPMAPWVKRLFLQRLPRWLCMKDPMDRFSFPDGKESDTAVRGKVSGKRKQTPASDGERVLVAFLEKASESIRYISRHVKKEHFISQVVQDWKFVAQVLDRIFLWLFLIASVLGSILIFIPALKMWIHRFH
UniProt P43143, whole entry, looked up: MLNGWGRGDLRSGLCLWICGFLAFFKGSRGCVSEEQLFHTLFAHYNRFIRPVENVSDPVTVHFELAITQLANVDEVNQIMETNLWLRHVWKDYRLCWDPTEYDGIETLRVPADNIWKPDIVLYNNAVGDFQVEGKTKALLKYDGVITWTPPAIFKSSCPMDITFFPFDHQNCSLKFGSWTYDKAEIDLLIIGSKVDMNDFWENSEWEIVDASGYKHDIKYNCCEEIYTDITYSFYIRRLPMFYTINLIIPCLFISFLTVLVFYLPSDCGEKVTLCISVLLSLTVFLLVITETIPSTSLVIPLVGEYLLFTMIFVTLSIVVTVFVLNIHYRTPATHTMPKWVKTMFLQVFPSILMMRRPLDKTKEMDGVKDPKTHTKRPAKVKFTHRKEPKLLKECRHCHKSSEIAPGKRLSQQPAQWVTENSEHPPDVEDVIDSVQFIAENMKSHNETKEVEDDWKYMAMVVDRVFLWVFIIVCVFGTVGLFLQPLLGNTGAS

According to publication PMC8001506 (Marine Drugs, 2021):

How the values were obtained:
[1] = biological target: rat α3β2 nAChR (Rattus norvegicus, UniProt P04757+P12390)
[2] = biological target: rat α6/α3β2β3 nAChR (Rattus norvegicus, UniProt P04757+P12390+P12391+P43143); details: for α6/α3β2β3 over the other nAChRs tested up to 10 µM

CC(C)C[C@@H]1NC(=O)[C@H](CC(=O)O)NC(=O)[C@H](CO)NC(=O)[C@H](Cc2c[nH]cn2)NC(=O)[C@H](CCC(N)=O)NC(=O)[C@H](C(C)C)NC(=O)[C@H](CCC(N)=O)NC(=O)[C@@H]2CSSC[C@H](N)C(=O)N[C@@H](CSSC[C@@H](C(=O)O)NC1=O)C(=O)N[C@@H](CO)C(=O)N[C@@H](CC(N)=O)C(=O)N1CCC[C@H]1C(=O)N[C@@H](C)C(=O)N2 [Δ-CIC]
selectivity profile (in words) ([1]; for α3β2 over the other nAChRs tested up to 10 µM): high selectivity profile | potency loss (IC50 ratio) versus α-conotoxin MII ([1]; α3β2, fold higher IC50 / less potent than MII (MII from literature)): 1000 fold | selectivity profile (in words) [2]: high selectivity profile
